Pooled drug test results. Numbers come from NIAID ChemDB, via PubChem.

Common to all: whole-cell or culture tests; species: Mycobacterium tuberculosis

Conditions beyond the fields shown may differ between rows. A number after MIC or MFC names an inhibition level or a share of isolates. An empty or dashed field is not shown. Percent inhibition refers to the dose given; in toxicity tests it is the harm to the cells. a–b is a range or a potency band. Fold resistance has wild type as its base. ECn is the concentration giving n% inhibition of infection, replication or growth. MIC bound comes from a single tested concentration.

compound	strain or isolate	tested at	method	mutations	measure	setting	value
Cc1cc(N(C)C)ccc1N=Nc1ccc2ncccc2c1	H37Rv	-	resazurin	-	MIC bound	-	>6.25 µg/mL
CO[C@H]1/C=C/O[C@@]2(C)Oc3c(C)c(O)c4c(O)c(c(/C=N/N5CCN(C6CCCC6)CC5)c(O)c4c3C2=O)NC(=O)/C(C)=C\C=C\[C@H](C)[C@H](O)[C@@H](C)[C@@H](O)[C@@H](C)[C@H](OC(C)=O)[C@@H]1C	Aoyama B	-	-	-	MIC	-	2.5 µg/mL
O=[N+]([O-])c1ccc2c(c1)nc1n2C(c2c(F)cccc2F)SC1	H37Rv	12.5 µg/mL	BACTEC	-	inhibition	-	50%
O=C1c2cc(F)c(F)cc2-n2c1nc1ncccc1c2=O	H37Rv	-	-	-	MIC	-	>4 µg/mL
Clc1c2c(c(Cl)c3c1=Nc1ccc4ccccc4c1S3)=Nc1ccc3ccccc3c1S2	H37Rv	-	BACTEC	-	MIC	-	≥12.5 µg/mL
O=C(/C=C/c1ccc(C(F)(F)F)cc1)c1c(O)c2ccccc2oc1=O	H37Rv	-	agar	-	MIC90	-	6.12 µg/mL
CCc1nc2ccccc2n1CCCCNc1ccc(-c2ccccn2)cc1	H37Rv	-	turbidity / fluorescence	QcrB M342T	MIC90	-	22 µM
CN[C@@H]1[C@H](O[C@H]2[C@H](O[C@H]3[C@H](O)[C@@H](O)[C@H](N=C(N)N)[C@@H](O)[C@@H]3N=C(N)N)O[C@@H](C)[C@]2(O)C=O)O[C@@H](CO)[C@H](O)[C@H]1O	3897	-	-	-	MIC	-	≥2 µg/mL
O=c1oc2ccccc2c(O)c1C1=NNC(c2ccc(O)cc2O)C1	H37Rv	-	agar	-	MIC90	-	>6.25 µg/mL
O=C1c2cccnc2-c2nccc3c2c1nc1ccccc13	H37Rv	-	BACTEC	-	MIC	-	≤0.1 µg/mL
CO[C@@]1(NC(=O)Cc2cccs2)C(=O)N2C(C(=O)O)=C(COC(N)=O)CS[C@@H]21	Isolate 1	-	-	-	MIC	-	>16 µg/mL
O=C(c1ccncc1)N1N=C(c2cccs2)CC1(O)C(Cl)(Cl)Cl	H37Rv	-	-	-	MIC	-	>257 µM
C=C1C(=O)[C@@]23[C@@H]4CC5=C(C(=O)CC5(C)C)[C@@](C)(O4)[C@@H]2CC[C@@H]1[C@H]3O	H37Ra	-	resazurin / absorbance	-	MIC	-	25–50 µg/mL
CN[C@@H]1[C@@H](O)[C@@H](O[C@@H]2[C@@H](O)[C@H](O[C@H]3O[C@H](CN)CC[C@H]3N)[C@@H](N)C[C@H]2N)OC[C@]1(C)O	Praha 1	-	-	-	MIC	-	1.05 µM
CN[C@@H]1[C@H](O[C@H]2[C@H](O[C@H]3[C@H](O)[C@@H](O)[C@H](N=C(N)N)[C@@H](O)[C@@H]3N=C(N)N)O[C@@H](C)[C@]2(O)C=O)O[C@@H](CO)[C@H](O)[C@H]1O	9247 (streptomycin isoniazid-R)	-	-	-	MIC	-	>1280 µg/mL
O=C(Cc1cccs1)N[C@@H]1C(=O)N2C(C(=O)[O-])=C(C[n+]3ccccc3)CS[C@H]12	Isolate 2	-	-	-	MIC	-	8 µg/mL
Cc1ccc(Cn2nnc(-c3cc([N+](=O)[O-])cc([N+](=O)[O-])c3)n2)cc1	9449/2007	-	-	-	MIC	14 d	0.125 µM
O=c1oc2ccccc2c(O)c1C1=NNC(c2ccccc2-c2ccccn2)C1	INHR-MTB	-	agar	Isoniazid-resistant	MIC90	-	16.25 µg/mL
O=C1c2cc(Cl)ccc2-n2c1nc1ccccc1c2=O	H37Rv	-	-	-	MIC	-	0.06 µg/mL
COc1ccc(O)c2c(=O)c3c(OC)cc4c(c3oc12)[C@H]1C=CO[C@H]1O4	H37Rv	-	BACTEC	-	MIC	-	≥12.5 µg/mL
C[C@H]1COc2c(N3CCC4(CC3)OCCO4)c(F)c(N)c3c(=O)c(C(=O)O)cn1c23	MDR-TB	-	agar	-	MIC99	-	3.72 µM
COC(=O)c1c(C(=O)Nc2ccc(Cl)cc2)c(C)n(NC(N)=O)c1C	H37Rv	-	BACTEC	-	MIC bound	-	>12.5 µg/mL
COc1cccc(C2CC(c3c(O)c4cc(C)c(C)cc4oc3=O)=NN2)c1O	H37Rv	-	agar	-	MIC90	-	>6.25 µg/mL
CC[C@H]1OC(=O)[C@H](C)[C@@H](O[C@H]2C[C@@](C)(OC)[C@@H](O)[C@H](C)O2)[C@H](C)[C@@H](O[C@@H]2O[C@H](C)C[C@H](N(C)C)[C@H]2O)[C@](C)(OC)C[C@@H](C)C(=O)[C@H](C)[C@@H](O)[C@]1(C)O	H37Rv	-	-	-	MIC	-	>4 µg/mL
OC(c1ccccc1)(c1ccco1)C(O)(c1ccccc1)c1ccco1	H37Rv	6.25 µg/mL	-	-	inhibition	-	-1%
CC1=NN(C(=O)c2ccncc2)C(O)(C(F)(F)F)C1	RGH104	-	-	-	MIC	-	5.71 µM
CN(C)Nc1cc(N)c(N=Nc2ccccc2)c(=O)[nH]1	H37Rv	12.5 µg/mL	BACTEC	-	inhibition	-	45%
N#Cc1nc2ccccc2nc1Cl	H37Rv	-	-	-	EC50	-	<6.25 µg/mL
COc1nc2ccc(Br)cc2cc1C(c1ccccc1)C(O)(CCN(C)C)c1ccc2ccccc2c1	H37Rv	-	-	-	MIC90	-	1.76 µg/mL
CCCCNc1nc(SC)nc2nc[nH]c12	H37Rv	6.25 µg/mL	resazurin	-	inhibition	-	37%
CC(=O)OC[C@@]1(C)CCC[C@]2(C)[C@@H]1C[C@@H](O)[C@@]13C[C@@H](CC[C@@H]21)[C@@H](C)C3=O	H37Rv	-	resazurin / absorbance	-	MIC	-	12.5–25 µg/mL
S=C(Nc1ccc(N=Nc2ccccc2)cc1)SCc1ccccc1	H37Rv	128 µg/mL	BACTEC	-	inhibition	-	100%
CCc1nc2ccccc2n1CCCCNc1ccc(OC)cc1	H37Rv	-	turbidity / fluorescence	Rv1339 V90M	fold resistance	-	0.4
C=C1C(=O)[C@@]23[C@H](O)C[C@@H]4C(C)(C)CC[C@@H](OC(C)=O)[C@@]4(C)[C@@H]2CC[C@@H]1[C@H]3O	H37Rv	-	resazurin / absorbance	-	MIC	-	12.5–25 µg/mL
C[C@@H](O)[C@H]1C(=O)N2C(C(=O)O)=C(SCCN=CN)C[C@H]12	Isolate 4	-	-	-	MIC	-	4 µg/mL
CCc1nc2ccccc2n1CCCCSc1nnc(-c2ccc(Cl)cc2)o1	H37Rv	-	turbidity / fluorescence	Rv1339 V90M	fold resistance	-	10
O=C1c2cc(I)ccc2-n2c1nc1ncccc1c2=O	TN1082RFLP:V (DRUG sensitive)	-	-	-	MIC	-	0.03 µg/mL
CC1(C)S[C@@H]2[C@H](NC(=O)[C@H](N)c3ccc(O)cc3)C(=O)N2[C@H]1C(=O)O	Isolate 5	-	-	-	MIC	-	>16 µg/mL
O=C1c2ccccc2-c2c3c(cc4ccnc1c24)OCO3	H37Rv	-	BACTEC	-	MIC	-	12.5 µg/mL
COc1cccc(/C=C/C(=O)c2c(O)c3cc(C)c(C)cc3oc2=O)c1O	INHR-MTB	-	agar	Isoniazid-resistant	MIC90	-	>6.25 µg/mL
CO[C@H]1/C=C/O[C@@]2(C)Oc3c(C)c(O)c4c(O)c(c(/C=N/N5CCN(C)CC5)c(O)c4c3C2=O)NC(=O)/C(C)=C\C=C\[C@H](C)[C@H](O)[C@@H](C)[C@@H](O)[C@@H](C)[C@H](OC(C)=O)[C@@H]1C	9449/2007	-	-	-	MIC	-	>9.7 µM
CCc1nc2ccccc2n1CCSc1nnc(-c2ccc(Cl)cc2)o1	H37Rv	-	turbidity / fluorescence	-	MIC99	-	>20 µM
O=C1c2cc(Br)ccc2-n2c1nc1ncccc1c2=O	H37Rv	-	-	-	MIC	-	0.03 µg/mL
Cc1ccc(C2=NN(C(=O)c3ccncc3)C(O)(C(Cl)(Cl)Cl)C2)cc1	RGH102	-	-	-	MIC	-	>252 µM
COc1nc2ccc(Br)cc2cc1C(c1ccccc1)C(O)(CCN1CCN(C)CC1)c1ccccc1	H37Rv	-	-	-	MIC90	-	7.06 µg/mL
C[C@H]1COc2c(N3CCC(n4c(=O)[nH]c5cc(Cl)ccc54)CC3)c(F)c([N+](=O)[O-])c3c(=O)c(C(=O)O)cn1c23	MDR-TB	-	agar	-	MIC99	-	0.34 µM
COc1cc2c(cc1Cl)n([O-])c(C#N)c(N1CCN(c3ccc([N+](=O)[O-])cc3)CC1)[n+]2=O	H37Rv	-	-	-	MIC	-	0.39 µg/mL
Cn1c(=O)c2[nH]c(CCCCCCCc3nc4ccccc4[nH]3)nc2n(C)c1=O	-	6.25 µg/mL	resazurin	-	inhibition	-	93%
COc1nc2cccc(Br)c2cc1C(c1ccccc1)C(O)(CCN(C)C)c1cccc2ccccc12	H37Rv	-	-	-	MIC90	-	44.13 µg/mL
O=C1C(=O)c2ccccc2C(O)=C1C(/C=C/c1ccccc1)C1=C(O)c2ccccc2C(=O)C1=O	H37Rv	-	BACTEC	-	MIC	-	≥12.8 µg/mL
CCc1ccc([C@H]2C[C@@H](C(F)(F)F)n3ncc(C(=O)NCc4ccc5c(c4)OCO5)c3N2)cc1	H37Rv	-	fluorescence	MmpL3: Tyr252Cys	fold resistance	-	3.8
CC1COc2c(N3CCSCC3)c(F)c([N+](=O)[O-])c3c(=O)c(C(=O)O)cn1c23	MDR-TB	-	agar	-	MIC99	-	1.91 µM
CCCCCCCCc1ccc2c(c1)C(=O)c1nc3cc(CCCCCCCC)ccc3c(=O)n1-2	H37Rv	-	-	-	MIC	-	>8 µg/mL
C[C@@H]1Cn2cc(C(=O)O)c(=O)c3cc(F)c(N4CCN(/C(N)=N/C(N)=NCCCCCCN=C(N)/N=C(\N)N5CCN(c6c(F)cc7c(=O)c(C(=O)O)cn8c7c6O[C@@H](C)C8)CC5)CC4)c(c32)O1	H27Rv	-	broth dilution	-	MBC	-	1.25 µg/mL
N#Cc1c(Cl)n([O-])c2ccc(-c3ccc([N+](=O)[O-])cc3)cc2[n+]1=O	H37Rv	-	-	-	EC50	-	<6.25 µg/mL
C=C1C[C@@]23CC[C@H]4[C@@](C)(CCC[C@]4(C)C(=O)O)[C@@H]2[C@@H](OC(C)=O)C[C@@H]1C3	H37Ra	-	resazurin / absorbance	-	MIC	-	25–50 µg/mL
NNC(=O)c1ccncc1	H37Rv	-	agar	-	MIC90	-	0.73 µg/mL
N#Cc1nc2cc(Cl)ccc2nc1Cl	H37Rv	-	-	-	EC50	-	<6.25 µg/mL
CCOC(=O)/C(C#N)=C/c1ccc([N+](=O)[O-])o1	H37Rv	-	BACTEC	-	MIC bound	-	>12.5 µg/mL
N#Cc1c(N2CCN(c3ccc([N+](=O)[O-])cc3)CC2)[n+](=O)c2ccccc2n1[O-]	H37Rv	6.25 µg/mL	-	-	inhibition	-	100%
Nc1nc2ncc(NCc3ccc(C(=O)NC(CCC(=O)O)C(=O)O)cc3)nc2c(=O)[nH]1	H37Rv	-	BACTEC	-	MIC bound	-	>12.5 µg/mL
CCc1nc2ccc(C)cc2n1CCCCOc1ccccc1	H37Rv	-	turbidity / fluorescence	Rv1339 V90M	fold resistance	-	1.3
O=c1ssc2ncccc12	H37Rv	-	BACTEC	-	MIC bound	-	≤12.5 µg/mL
COc1nc2ccc(Br)cc2cc1C(c1ccccc1)C(O)(CC[N+](C)(C)C)c1ccccc1	H37Rv	-	-	-	MIC90	-	25.77 µg/mL
O=C(c1ccncc1)N1N=C(c2ccccc2)CC1(O)C(F)(F)F	RGH103	-	-	-	MIC	-	>298.5 µM
NNC(=O)CCc1ccncc1	H37Rv	-	BACTEC	-	MIC bound	-	>12.5 µg/mL
C=C1C(=O)[C@@]23CC[C@@H]4[C@@](C)(COC(C)=O)CCC[C@@]4(C)[C@@H]2[C@@H](O)C[C@@H]1C3	H37Ra	-	resazurin / absorbance	-	MIC	-	>50 µg/mL
O=C1c2ccc(N3CCNCC3)cc2-n2c1nc1ccccc1c2=O	H37Rv	-	-	-	MIC	-	4 µg/mL
CC1COc2c(N3CCN(C(c4ccccc4)c4ccc(Cl)cc4)CC3)c(F)c([N+](=O)[O-])c3c(=O)c(C(=O)O)cn1c23	MDR-TB	-	agar	-	MIC99	-	2.63 µM
CCc1nc2ccccc2n1CCCCOc1ccc(C)c(C)c1	H37Rv	-	turbidity / fluorescence	Rv1339 V90M	MIC90	-	2.3 µM
COc1ccc(/C=c2/sc3n(c2=O)NC(c2ccc(Cl)cc2)NN=3)cc1	H37Rv	-	BACTEC	-	MIC bound	-	>12.5 µg/mL
COc1nc2ccc(Br)cc2cc1C(c1ccccc1)C(O)(CCN(C)C)c1ccc(F)cc1	H37Rv	-	-	-	MIC90	-	8.3 µg/mL
O=[N+]([O-])c1ccc2nc3ccccc3[n+]([O-])c2c1	H37Rv	-	BACTEC	-	MIC bound	-	≤12.5 µg/mL
Cc1cc2oc(=O)c(C3=NNC(c4ccc(O)cc4O)C3)c(O)c2cc1C	INHR-MTB	-	agar	Isoniazid-resistant	MIC90	-	32.1 µg/mL
COc1c(/C=C/C=O)cc2c(c1OC)OCO2	H37Rv	-	BACTEC	-	MIC	-	≥12.5 µg/mL
O=C(NC(C/C=C/c1ccc2c(c1)C(=O)c1nc3cc(Cl)cc(Cl)c3c(=O)n1-2)C(=O)O)OCC1c2ccccc2-c2ccccc21	H37Rv	-	-	-	MIC	-	25 µg/mL

The last 7 rows once more:

compound	strain or isolate	tested at	method	mutations	measure	setting	value
CCc1nc2ccccc2n1CCCCOc1ccc(C)c(C)c1	H37Rv	-	turbidity / fluorescence	Rv1339 V90M	MIC90	-	2.3 µM
COc1ccc(/C=c2/sc3n(c2=O)NC(c2ccc(Cl)cc2)NN=3)cc1	H37Rv	-	BACTEC	-	MIC bound	-	>12.5 µg/mL
COc1nc2ccc(Br)cc2cc1C(c1ccccc1)C(O)(CCN(C)C)c1ccc(F)cc1	H37Rv	-	-	-	MIC90	-	8.3 µg/mL
O=[N+]([O-])c1ccc2nc3ccccc3[n+]([O-])c2c1	H37Rv	-	BACTEC	-	MIC bound	-	≤12.5 µg/mL
Cc1cc2oc(=O)c(C3=NNC(c4ccc(O)cc4O)C3)c(O)c2cc1C	INHR-MTB	-	agar	Isoniazid-resistant	MIC90	-	32.1 µg/mL
COc1c(/C=C/C=O)cc2c(c1OC)OCO2	H37Rv	-	BACTEC	-	MIC	-	≥12.5 µg/mL
O=C(NC(C/C=C/c1ccc2c(c1)C(=O)c1nc3cc(Cl)cc(Cl)c3c(=O)n1-2)C(=O)O)OCC1c2ccccc2-c2ccccc21	H37Rv	-	-	-	MIC	-	25 µg/mL